## Mutational tolerance of the Zika virus NS2B-NS3 protease

Chain scanned (Zika virus MR766; NS2B from position 2 to 131, then the start of NS3):
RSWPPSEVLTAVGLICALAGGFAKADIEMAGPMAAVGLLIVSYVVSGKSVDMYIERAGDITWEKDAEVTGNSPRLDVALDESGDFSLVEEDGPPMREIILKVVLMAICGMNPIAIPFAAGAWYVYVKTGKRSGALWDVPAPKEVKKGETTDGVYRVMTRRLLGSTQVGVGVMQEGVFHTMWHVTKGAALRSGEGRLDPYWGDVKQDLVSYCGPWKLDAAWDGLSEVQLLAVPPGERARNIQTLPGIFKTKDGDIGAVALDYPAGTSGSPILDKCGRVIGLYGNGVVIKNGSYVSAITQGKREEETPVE

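Libraries of single mutants were passaged as virus pools on Huh-7.5 cells. The effect is the change in frequency of a mutant, normalised to wild type, as a mean of three replicate libraries (two for positions 207-308). The aim was to find sites where inhibitor-binding pockets cannot change.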

The number is log2 of the effect relative to wild type; negative values mean reduced growth, higher values better tolerance.
Each entry names the wild-type residue, its position and the residue put in its place.
This list holds changes to proline only.
Values above 0 are not proof of better growth: six high scorers were tested one by one, five grew less well than wild type and one about as well.

G163P read -6.65.
S164P read 0.10.
T165P read -6.46.
Q166P read -7.03.
V167P read -6.55.
G168P read -6.17.
V169P read -6.97.
G170P read -6.84.
V171P read -6.59.
M172P read -6.39.
Q173P read -7.33.
E174P read -6.88.
G175P read -5.97.
V176P read -6.52.
F177P read -5.82.
H178P read -6.50.
T179P read -6.80.
M180P read -5.82.
W181P read -5.93.
H182P read -6.56.
V183P read -5.82.
T184P read -7.05.
K185P read -6.49.
G186P read -5.91.
A187P read -6.30.
A188P read -5.63.
L189P read -5.01.
R190P read -5.93.
S191P read -5.59.
G192P read -6.26.
E193P read -0.10.
G194P read -7.14.
R195P read -6.16.
L196P read -6.61.
D197P read -2.65.
Y199P read -6.16.
W200P read -7.63.

2 of these entries, quoted again:

{"mutation": "M172P", "log2 effect": -6.39}
{"mutation": "G163P", "log2 effect": -6.65}

Positions 1-103, 104-206 and 207-308 were made and measured as separate libraries.
Position 1 still belongs to NS2A. In the paper, -1 or higher counts as tolerated.

Values reported by Ni et al. 2025 (doi:10.1038/s41467-025-63602-z).